Taken from: PubChem BioAssay AID504761 (Drosophila RNAi Screening Center, 2011)

- Screen: 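Insect host genes that dengue virus relies on to spread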 (primary screen)
- Cells: D.Mel-2 cells from Drosophila
- Knock-down reagent: long dsRNA against Drosophila genes
- Challenge: infection with dengue virus type 2; dose and infection time not stated
- Detection: 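Cells stained for dengue envelope protein and imaged; percent of infected cells per well on duplicate plates, ranked by infection, with stained nuclei counted for cell number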
- Direction: infection score: higher = more virus-infected cells; cell count: higher = more cells in the well
- Hit rule: 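Low infection ranks in the two replicates (chance level up to 0.065) followed by a retest with a 1.5-fold or larger significant decrease, p below 0.05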
- Meaning of the calls: active = confirmed: knock-down lowers infection; inactive = not picked or not confirmed
In all, the deposit lists about 22,000 reagents; this is a random part of those with a known target gene and a result. In the full data, 116 (0.52%) are marked active. 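Calls depend on retest data that are not deposited; infection was ranked per plate without normalising between plates; the unit of the infection score is not given.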 Raw values vary from plate to plate and are shown uncorrected. The record does not give: the amount of reagent, the time to read-out.

Target gene,dsRNA,"infection score, replicate 1","infection score, replicate 2","cell count, replicate 1","cell count, replicate 2",call
sc (scute),DRSC18830,3.39,11.6,6580,5189,inactive
sc (scute),DRSC29307,,,432,311,inactive
"Adat1 (Adenosine deaminase, tRNA-specific 1)",DRSC03479,9,8.3,4953,6131,inactive
"Adat1 (Adenosine deaminase, tRNA-specific 1)",DRSC27220,5.21,2.52,6393,6082,inactive
hiw (highwire),DRSC20338,9.63,3.82,6325,6595,inactive
hiw (highwire),DRSC20339,0.93,29.2,323,4249,inactive
hiw (highwire),DRSC23634,0.26,4.45,6457,5849,inactive
CG14324,DRSC14803,22.1,0.68,4281,6356,inactive
CG14324,DRSC24292,4.06,4.11,6596,6503,inactive
CG31910,DRSC28186,26,11.9,4590,7053,inactive
MTPAP (mitochondrial poly(A) polymerase),DRSC18585,4.11,4.75,6792,6027,inactive
MTPAP (mitochondrial poly(A) polymerase),DRSC30055,2.37,2.94,6114,5922,inactive
CG11164,DRSC19392,5.83,7.08,6588,6720,inactive
Spase22-23 (Spase 22/23-subunit),DRSC15857,0.49,0.4,6264,6931,inactive
Scm (Sex comb on midleg),DRSC16853,4.6,5.25,6061,6206,inactive
Dph2 (Diphthamide biosynthesis 2),DRSC16222,16.6,9.54,6381,6606,inactive
Dph2 (Diphthamide biosynthesis 2),DRSC26401,3.1,2.36,6680,5599,inactive
CG12432 (retired record),DRSC19455,10.5,5.02,6644,6292,inactive
CG12432 (retired record),DRSC25232,9.26,4.73,6218,5938,inactive
NT5E-2 (Ecto-5'-nucleotidase 2),DRSC06893,6.93,14.8,6822,6229,inactive
Fife,DRSC23483,19.1,16.1,4458,5674,inactive
galla-2,DRSC10936,13.6,,5496,416,inactive
galla-2,DRSC21949,5.62,1.01,6246,6512,inactive

Copied from the list.
Spase22-23 (Spase 22/23-subunit) [DRSC15857], call: inactive
For “cell count, replicate 1”, MTPAP (mitochondrial poly(A) polymerase) [DRSC30055] has 6114
